A mixed list of measured activities; the numbers were collected in NIAID ChemDB.

Shared fields: enzyme or target tests; species: HIV-1; target: Integrase; endpoint: IC50

ICn is the concentration giving n% inhibition. Conditions beyond the fields shown may differ between rows.

| structure | result |
|---|---|
| CC(=O)Oc1ccc(/C=C/C(=O)Nc2cccc3c(S(=O)(=O)NCCc4cccc([N+](=O)[O-])c4)cccc23)cc1OC(C)=O | >100 µg/mL |
| O=C(/C=C/c1ncccc1-c1ccccc1)/C=C/c1ncccc1-c1ccccc1 | 5.2 µM |
| O=C(/C=C/c1ccc(O)c(O)c1)Nc1cccc2c(S(=O)(=O)Nc3ccc(Br)cc3)cccc12 | 19.5 µg/mL |
| CC(CC[C@@H](C)[C@H]1CCC2C3C[C@H](OS(=O)(=O)[O-])[C@H]4C[C@H](OS(=O)(=O)[O-])[C@@H](OS(=O)(=O)[O-])C[C@]4(C)C3CC[C@@]21C)C(C)(C)C.[Na+].[Na+].[Na+] | 0.4 µg/mL |
| O=C(/C=C/c1ncccc1N1CCOCC1)/C=C/c1ncccc1N1CCOCC1 | >20 µM |
| NCCC1C=Nc2ccccc21 | 6.47 µM |
| Cc1cc2nc3c4ccccc4n(CCN(C)C)c3nc2cc1C | 2.4 µM |
| O=S(=O)(O)Oc1cc2c(ccn2S(=O)(=O)O)cc1O | 116 µM |
| O=C(/C=C/c1ccc(O)c(O)c1)Nc1cccc2c(S(=O)(=O)Nc3ccccc3)cccc12 | 12.2 µg/mL |
| O=C(OCC1OC(OC2Cc3c(O)cc(O)cc3OC2c2cc(O)c(O)c(O)c2)C(O)C(O)C1O)c1cc(O)c(O)c(O)c1 | 2.66 µM |
| O=C(O)CC(O)CN=Cc1ccccc1O | >100 µM |
| O=C(NCc1ccc(O)c(O)c1)c1ccc2ccc(C(=O)O)c(O)c2n1 | <50 µM |
| C[C@H](NC(=O)/C=C(\O)C(=O)O)c1ccccc1 | >300 µM |
| CCCCCCCCCCCCCCCC(=O)NC1C(COP(=O)(O)OC2CC(COP(=O)(O)OC3C(O)C(CO)OC3n3cnc4c(N)ncnc43)OC2n2cnc3c(N)ncnc32)OC(n2cnc3c(N)ncnc32)C1O | >1000 µM |
| Cn1cc(C(=O)O)c(=O)c2cc(N)c(N3CCN(c4ccccn4)CC3)cc21 | 75 µM |
| O=C(/C=C/c1ccc(O)c(O)c1)Nc1cccc2c(S(=O)(=O)Nc3ccc(Cl)cc3)cccc12 | 20.4 µg/mL |
| CN1C(=O)C(c2cc(Cl)c(O)c(Cl)c2)NC(=O)[C@@H]2NC(=O)C(c3cc(Cl)c(O)c(Cl)c3)NC(=O)[C@H](NC(=O)C(=O)c3cc(Cl)c(O)c(Cl)c3)Cc3c[nH]c4c(cccc34)-c3cc2cc(c3O)Oc2ccc(cc2)CC1C(=O)NC(C(=O)O)c1ccc(O)cc1 | 0.4 µM |
| O=C(/C=C/c1ncc(F)cc1F)/C=C/c1ncc(F)cc1F | 12 µM |
| Cc1cc(=O)c(O)c(C(=O)NCc2ccc(F)cc2)o1 | 1 µM |
| CC(=O)Oc1ccc(/C=C/C(=O)Nc2cccc3c(S(=O)(=O)NCCc4ccccc4C)cccc23)cc1OC(C)=O | >100 µg/mL |
| O=C(/C=C/c1ccc(O)c(O)c1)O[C@H]1[C@H](O)[C@@H](O)[C@H](Oc2cc(O)c3c(=O)cc(-c4ccc(O)cc4)oc3c2)O[C@@H]1C(=O)O | 7.2 µg/mL |
| NS(=O)(=O)c1ccc(NC(=O)c2ccc(SSc3ccc(C(=O)Nc4ccc(S(N)(=O)=O)cc4)cc3)cc2)cc1 | >100 µM |
| COc1ccnc2[nH]cc(C(=O)C(=O)N3CCN(C(=O)c4ccccc4)C[C@H]3C)c12 | >500 µM |
| Cc1ccc(NS(=O)(=O)c2cccc3c(NC(=O)/C=C/c4ccc(O)c(O)c4)cccc23)cc1 | >100 µg/mL |
| O=C(NCc1ccc(F)cc1)C1C(=O)N(O)C(=O)c2ccccc21 | 0.056 µM |
| C[C@@H](NC(=O)/C=C(\O)C(=O)O)c1ccccc1 | 24 µM |
| COc1ccc(C2=C3c4cc(OC)c(OC)cc4C=CN3C3C(=O)Oc4cc(O)c(OC)cc4C23)cc1O | >1600 µM |
| CC(C)C(=O)C[C@@H](O)[C@@H](C)[C@H]1CC[C@@]2(C)C3=CC(=O)[C@]45O[C@H]4[C@H](O)[C@@H](O)C[C@]5(C)C3=C[C@@H](O)[C@]12C | 26 µg/mL |
| C[C@@H](NC(=O)c1nc(-c2cccs2)[nH]c(=O)c1O)c1ccccc1 | 0.5 µM |

2 of the rows above, restated:

structure | result
O=C(/C=C/c1ccc(O)c(O)c1)Nc1cccc2c(S(=O)(=O)Nc3ccccc3)cccc12 | 12.2 µg/mL
O=C(O)CC(O)CN=Cc1ccccc1O | >100 µM